From article PMC10674488, “Structural Basis of Clostridium perfringens Enterotoxin Activation and Oligomerization by Trypsin” (Toxins, 2023)

Biological target: the molecule itself
Assay: crystal structure

B1: C-terminal claudin-binding domain of Clostridium perfringens enterotoxin (domain or fragment)
chain: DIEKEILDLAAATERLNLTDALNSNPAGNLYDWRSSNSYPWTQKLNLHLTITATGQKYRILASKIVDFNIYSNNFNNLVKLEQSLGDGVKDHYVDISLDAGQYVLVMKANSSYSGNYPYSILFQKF
- binding result: binds
